Pooled drug test results. Numbers come from NIAID ChemDB, via PubChem.

Common to all: tests in culture; organism: HIV-1; method: RT activity; measure: inhibition

An empty or dashed field is not shown.

SMILES	cells	conditions	dose	strain	result
Cc1cn([C@H]2C[C@H](N=[N+]=[N-])[C@@H](COP(=O)(O)OC[C@H]3OC(O)[C@H](O)[C@@H](O)[C@@H]3O)O2)c(=O)[nH]c1=O	U-937	14 d	5 µM	LAV-Bru	0%
CC[C@@]1(O)C(=O)OCc2c1cc1n(c2=O)Cc2cc3ccccc3nc2-1	H9	-	0.01 µM	IIIB	89%
Cc1cn([C@H]2C[C@H](N=[N+]=[N-])[C@@H](CO)O2)c(=O)[nH]c1=O	CEM	26 d	1 µM	LAV-Bru	20%
Cc1ccsc1-c1cn([C@H]2C[C@H](O)[C@@H](CO)O2)c(=O)[nH]c1=O	H9	-	10 µg/mL	IIIB	15%
Nc1ccn([C@@H]2CS[C@H](CO)O2)c(=O)n1	PBL (resting) + PBL	-	5 µM	SF162 R5	98%
Nc1nc(=O)n([C@H]2C[C@H](O)[C@@H](CO)O2)cc1-c1ccc[se]1	H9	-	10 µg/mL	IIIB	3%
O=C(O)P(=O)(O)O	PBL	28 d	16 µM	IIIB	36%
Cc1cn([C@H]2C[C@H](N=[N+]=[N-])[C@@H](CO)O2)c(=O)[nH]c1=O	PBL (resting) + PBL	-	4 µM	SF162 R5	29%
Nc1nc(=O)n([C@@H]2C[C@H](O)[C@@H](CO)O2)cc1-c1ccncc1	H9	-	10 µg/mL	IIIB	35%
Cc1cn([C@H]2C=C[C@@H](CO)O2)c(=O)[nH]c1=O	PBL (activated) + PBL	-	4 µM	BZ X4	99%
COc1ccccc1CN[C@H]1C2CCN(CC2)[C@H]1C(c1ccccc1)c1ccccc1	Macrophage + Monocytes/macrophages	-	0.01 µM	BaL	1%
Nc1nc(=O)n([C@@H]2C[C@H](O)[C@@H](CO)O2)cc1-c1ccc[se]1	H9	-	10 µg/mL	IIIB	5%
CCCCCCCCCCCCCCCCO[C@H](CCl)COP(=O)(O)OCC[N+](C)(C)C	H9	-	10 µM	IIIB	74%
CCCCCCCCCCCCCCCCOP(=O)(OC[C@H]1OC(O)[C@H](O)[C@@H](O)[C@@H]1O)OC[C@H]1O[C@@H](n2cc(C)c(=O)[nH]c2=O)C[C@@H]1N=[N+]=[N-]	CEM	22 d	1 µM	LAV-Bru	0%
CCCCCCc1ccsc1-c1cn([C@H]2C[C@H](OC(=O)c3ccc(C)cc3)[C@@H](COC(=O)c3ccc(C)cc3)O2)c(=O)[nH]c1=O	H9	-	10 µg/mL	IIIB	70%

A second listing of 2 rows from above:

SMILES,cells,conditions,dose,strain,result
CCCCCCc1ccsc1-c1cn([C@H]2C[C@H](OC(=O)c3ccc(C)cc3)[C@@H](COC(=O)c3ccc(C)cc3)O2)c(=O)[nH]c1=O,H9,-,10 µg/mL,IIIB,70%
CCCCCCCCCCCCCCCCOP(=O)(OC[C@H]1OC(O)[C@H](O)[C@@H](O)[C@@H]1O)OC[C@H]1O[C@@H](n2cc(C)c(=O)[nH]c2=O)C[C@@H]1N=[N+]=[N-],CEM,22 d,1 µM,LAV-Bru,0%

Rows are shuffled and stem from different studies. Percent inhibition refers to the dose given; in toxicity tests it is the harm to the cells.